According to publication PMC12474180 (Toxins, 2025):

Experiments:
Conditions in all cases: Table S1; recombinant enzyme, 30 °C
MlrC = test: Degradation by purified recombinant MlrC
MlrB = test: Degradation by purified recombinant MlrB
MlrA = test: Degradation by purified recombinant MlrA

C=C(C(=O)N[C@H](C)C(=O)O)N(C)C(=O)CC[C@@H](NC(=O)[C@@H](C)[C@@H](N)/C=C/C(C)=C/[C@H](C)[C@H](Cc1ccccc1)OC)C(=O)O
Degrading ability of MlrC (MlrC): +
Degrading ability of MlrB (MlrB): -
Degrading ability of MlrA (MlrA): -
